Laboratory results from patent publication US7767240B2, “Microbiological control in poultry processing” (priority 2001, dated 2010).

Tests used:
[1] = set-up: species or system chicken; settings: 20 ppm Cl2 equivalent, 1 = better tasting sample
[2] = Skin pigmentation, Minolta Color Meter (Example 6); set-up: species or system chicken; settings: for Mean Pre-Chill Minolta Value B / Mean Pre-Chill Minolta Value L / Mean Pre-Chill Minolta Value a: before chilling; for Mean Post-Chill Minolta Value L / Mean Post-Chill Minolta Value a / Mean Post-Chill Minolta Value b: after chilling

SMILES: CC1(C)C(=O)N(Br)C(=O)N1Br [DBDMH, 1,3-dibromo-5,5-dimethylhydantoin]
- Tasting Ranking, Breast Meat, Mean ([1]; mean of 10 panelists): 1.6 a
- Tasting Ranking, Thigh Meat, Mean ([1]; mean of 10 panelists): 1.4 a
- Tasting Ranking, Breast Meat, S1 ([1]; panelist S1): 1
- Tasting Ranking, Thigh Meat, S1 ([1]; panelist S1): 2
- Tasting Ranking, Breast Meat, S2 ([1]; panelist S2): 2
- Tasting Ranking, Thigh Meat, S2 ([1]; panelist S2): 1
- Tasting Ranking, Breast Meat, S3 ([1]; panelist S3): 2
- Tasting Ranking, Thigh Meat, S3 ([1]; panelist S3): 1
- Tasting Ranking, Breast Meat, S4 ([1]; panelist S4): 2
- Tasting Ranking, Thigh Meat, S4 ([1]; panelist S4): 2
- Tasting Ranking, Breast Meat, S5 ([1]; panelist S5): 1
- Tasting Ranking, Thigh Meat, S5 ([1]; panelist S5): 2
- Tasting Ranking, Breast Meat, S6 ([1]; panelist S6): 2
- Tasting Ranking, Thigh Meat, S6 ([1]; panelist S6): 1
- Tasting Ranking, Breast Meat, S7 ([1]; panelist S7): 2
- Tasting Ranking, Thigh Meat, S7 ([1]; panelist S7): 1
- Tasting Ranking, Breast Meat, S8 ([1]; panelist S8): 1
- Tasting Ranking, Thigh Meat, S8 ([1]; panelist S8): 1
- Tasting Ranking, Breast Meat, S10 ([1]; panelist S10): 1
- Tasting Ranking, Thigh Meat, S10 ([1]; panelist S10): 1
- Mean Pre-Chill Minolta Value B ([2]; 5 ppm group): 13.61 a
- Mean Pre-Chill Minolta Value L ([2]; 5 ppm group): 58.80 a
- Mean Pre-Chill Minolta Value a ([2]; 5 ppm group): 4.67 a
- Mean Post-Chill Minolta Value L ([2]; 5 ppm): 52.68 a
- Mean Post-Chill Minolta Value a ([2]; 5 ppm): 5.42 a
- Mean Post-Chill Minolta Value b ([2]; 5 ppm): 15.64 a
- Mean Pre-Chill Minolta Value B ([2]; 10 ppm group): 13.64 a
- Mean Pre-Chill Minolta Value L ([2]; 10 ppm group): 59.97 a
- Mean Pre-Chill Minolta Value a ([2]; 10 ppm group): 4.31 a
- Mean Post-Chill Minolta Value L ([2]; 10 ppm): 53.19 a
- Mean Post-Chill Minolta Value a ([2]; 10 ppm): 5.69 a
- Mean Post-Chill Minolta Value b ([2]; 10 ppm): 15.75 a
- Mean Pre-Chill Minolta Value B ([2]; 15 ppm group): 13.81 a
- Mean Pre-Chill Minolta Value L ([2]; 15 ppm group): 58.43 a
- Mean Pre-Chill Minolta Value a ([2]; 15 ppm group): 4.84 a
- Mean Post-Chill Minolta Value L ([2]; 15 ppm): 54.21 a
- Mean Post-Chill Minolta Value a ([2]; 15 ppm): 5.55 a
- Mean Post-Chill Minolta Value b ([2]; 15 ppm): 15.64 a
- Mean Pre-Chill Minolta Value B ([2]; 20 ppm group): 13.67 a
- Mean Pre-Chill Minolta Value a ([2]; 20 ppm group): 4.99 a
- Mean Post-Chill Minolta Value a ([2]; 20 ppm): 5.49 a
- Mean Post-Chill Minolta Value b ([2]; 20 ppm): 15.80 a
- Mean Pre-Chill Minolta Value B ([2]; 25 ppm group): 13.50 a
- Mean Pre-Chill Minolta Value L ([2]; 25 ppm group): 58.97 a
- Mean Pre-Chill Minolta Value a ([2]; 25 ppm group): 4.68 a
- Mean Post-Chill Minolta Value L ([2]; 25 ppm): 54.25 a
- Mean Post-Chill Minolta Value a ([2]; 25 ppm): 5.63 a
- Mean Post-Chill Minolta Value b ([2]; 25 ppm): 15.76 a
